Experimental data from the supplement of paper PMC9931576.
Human monoclonal antibodies against the spike receptor-binding domain (heavy:light variable regions). IC50 against pseudoviruses bearing the spike of naturally observed variants; lower = stronger; >10 µg/ml means not reached at the top dose. No active / inactive call. The stated detection limit is 0.0005 µg/ml; values near or below 0.001 µg/ml lie at the floor of the assay.

Experiments:
Experiment in all cases: pseudovirus neutralization IC50; higher = weaker neutralization
[1] = biological target: SARS-CoV-2 Omicron BA.1 spike pseudovirus
Method: (§1)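 Single-round VSV luciferase pseudovirus mixed with antibody dilutions for 1 h and put on Huh-7 cells for about a day; IC50 from the dose curve.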

[2] = biological target: SARS-CoV-2 Omicron BA.2 spike pseudovirus
Method: as §1

[3] = biological target: SARS-CoV-2 Omicron BA.2.75 spike pseudovirus
Method: as §1

[4] = biological target: SARS-CoV-2 Omicron BA.5 spike pseudovirus
Method: as §1

[5] = biological target: SARS-CoV-2 Omicron BQ.1.1 spike pseudovirus
Method: as §1

[6] = biological target: SARS-CoV-2 Omicron XBB spike pseudovirus
Method: as §1

[7] = biological target: SARS-CoV-2 early D614G spike pseudovirus
Method: as §1

| Binder | pseudovirus neutralization IC50 [1] | pseudovirus neutralization IC50 [2] | pseudovirus neutralization IC50 [3] | pseudovirus neutralization IC50 [4] | pseudovirus neutralization IC50 [5] | pseudovirus neutralization IC50 [6] | pseudovirus neutralization IC50 [7] |
| --- | --- | --- | --- | --- | --- | --- | --- |
| BD55-3161 (protein) chain 1: QVQLVQSGGEVKKPGSSVKVSCKVSGDTFSNYAISWVRQAPGQGLEWMGRIIPSIGLGNQAQQFQGRLSITADKSTRTVYMDLRSLRSEDTALYYCARDERVDDDANAYYPGGWYLDYWGQGTLVTVSS chain 2: DIVMTQSPDSLAVSLGERATINCKSSQSVVYSSNNKNYLAWYQQKPGQPPKLLISWASTRESGVPDRFSGSGSGTDFTLTISSLQAEDVAVYYCQQYYDTPLTFGPGTKVDIK | > 10 µg/mL | > 10 µg/mL | > 10 µg/mL | > 10 µg/mL | > 10 µg/mL | > 10 µg/mL | > 10 µg/mL |
| BD55-3293 (protein) chain 1: EVQLVESGGDLVQPGGSLRLSCAASGFTFSDYVMQWVRQAPGKGPEHISSISSIGDYTYYADSVQGRFTISRDNSKNTVYLQMRSLRPEDTAVYYCVKDHGRQLVQEVFDYWGQGTLVTVSS chain 2: DIQMTQSPSSLSASVGDRVIITCRASQTISTYLNWYQQAPGKAPKLLIYNVSTLKSGVPSRFSGSGSGTDFTLTISRLQPEDFASYYCQQSYTTPFTFGQGTKLEVK | > 10 µg/mL | > 10 µg/mL | > 10 µg/mL | > 10 µg/mL | > 10 µg/mL | > 10 µg/mL | 7.2 µg/mL |
| BD55-3324 (protein) chain 1: EVQLVESGGGLVQPGGSLRLSCAASGFIFSNYAMHWVRQAPGKGLEYVSSITSSGVGGFYAESVKGRFTISRDNSKNTLFLQMGSLTPEDTAVYYCAREGTGVLELYFDFWGPGSLVTVSS chain 2: DIQMTQSPSSLSASVGDKVTISCRASQSIRTNLNWYQLKPGKAPKLLIYSTSTLQSGVPSRFSGRGSGTDFTLTITSLQPEDFATYFCQQSYTTPEYTFGQGTKLEVK | > 10 µg/mL | > 10 µg/mL | > 10 µg/mL | > 10 µg/mL | > 10 µg/mL | > 10 µg/mL | > 10 µg/mL |
| BD55-3366 (protein) chain 1: QVQLVESGGGVVQPGRSLRLSCAASGFTFSSSVMHWVRQAPGKGLEWVAFVSSDGVNRYHADSVKGRFTISRDNSRNTVYLQMNSLRPEDTALYFCAREGWDPLACFFDAWGQGTLVTVSS chain 2: DIVMTQSPDSLAVSLGERATINCKSSQSIYSSNNKNYLAWYQQKPGQPPKLLIFWASTRESGVPDRFSGSGSGTDFTLTINSLQAEDVAVYFCQQYYVTPQVTFGQGTRLEIK | > 10 µg/mL | > 10 µg/mL | > 10 µg/mL | > 10 µg/mL | > 10 µg/mL | > 10 µg/mL | > 10 µg/mL |
| BD55-3367 (protein) chain 1: EVQLVESGGGLVQPGGSLRLSCAASGFTFSNYAMHWVRQAPGKGLEYVSSITSDGRGAFYANSLQGRVTISRDNSQKMLYLQMGGLRGEDVAVYYCAREGSTVISHYLDYWGQGTQVTVSS chain 2: DIQMTQSPSSLSASVGDRVTITCRASQSISTYLNWYQQKPGKAPRLLIYAASSLQSGVPSRFSGSGSGTDFTLTISSLQPEDFATYYCQQSYVTPEYTFGQGTKLEIK | > 10 µg/mL | > 10 µg/mL | > 10 µg/mL | > 10 µg/mL | > 10 µg/mL | > 10 µg/mL | > 10 µg/mL |
| BD55-3414 (protein) chain 1: QVQLQESGPGLVKPSQTLSLTCTVSGGSISRGDYYWSWIRQYPGKGLEWIGYISHSGSTHYNPSLKSRVTISLDTSKNLLSLKVTSVTAADTAVYYCAREEGDRRYTGADAYDIWGPGTMVTVSA chain 2: QSVLTQPPSVSGAPGQRVTISCAGSSSNIGAGYAVHWYQQLPRTAPKLLIYGDTNRPSGVPDRFSGSKSGTSASLAITGLQAEDEADYYCQSYDSSLNSWVVFGGGTKLTVL | > 10 µg/mL | > 10 µg/mL | > 10 µg/mL | > 10 µg/mL | > 10 µg/mL | > 10 µg/mL | 6.46 µg/mL |
| BD55-3417 (protein) chain 1: QVQVVQSGAEVKKPGDSVRVSCKTSGYTFTSHDINWVRQAPGQGLEWVGWISPYNGNTNHAQKFQGRVTMATDTSTSTAYMELRSLRSDDTAVYYCARAAEGVYWGWYFDLWGRGTPVTVSS chain 2: EIVMTQSPATLSVSPGDRATLSCRASQSVSSDLAWYQQKPGQAPRLLIYGASTRASGVPARFSGSGSGTEFTLTISSLQSEDFAVYYCQQYNNWPPLYTFGQGTKLEIK | > 10 µg/mL | > 10 µg/mL | > 10 µg/mL | > 10 µg/mL | > 10 µg/mL | > 10 µg/mL | > 10 µg/mL |
| BD55-3433 (protein) chain 1: QVQLVQSDPELKEPGASVRISCKASGYIFTTYAMNWVRQAPGQGLEWMGWINPNTGTPTYAQGFTGRFVFSLDTPVSTAYLQISSLKAQDTAIYYCARDPGGSATSGFDSWGQGTLVTVSS chain 2: DIVMTQSPATLSVSPGARATLSCRASHSVSSHLAWYQQRPGQAPRLLINGASTRATGIPDRFSGSGSGTEFTLTISSLQSEDFAVYYCHQYSYWPITFGQGTRLEIK | 4.09 µg/mL | 3.22 µg/mL | > 10 µg/mL | 4.27 µg/mL | > 10 µg/mL | > 10 µg/mL | 0.002 µg/mL |
| BD55-3485 (protein) chain 1: QVQLQESGPGLVKPSETLSLTCTVSGGSISSYFWTWIRQSPGKGLEWIGNIYYSGETKYNPSLKSRVTITVDTSKDVFSLILTSMTAADTAVYYCARGGGRWQQSDYYYGMDFWGQGTTVTVSS chain 2: DIQMTQSPSSLSASVGDRVTITCRASQSIGRYLNWYQQKPGKAPRLLMYEATSLQSGVPSRFSGSGFGADFTLTISSLQPEDFATYYCQQSYSPSYTFGQGTKLEIK | 4.3 µg/mL | 5.55 µg/mL | 5.65 µg/mL | 5.3 µg/mL | 4.81 µg/mL | 6.07 µg/mL | 6.36 µg/mL |
| BD55-3549 (protein) chain 1: EVQLVESGGGLVQPGGSLRLSCAASGFTFSTYDMHWVRQTTGKGLEWLSTIGTSGDTYYADSVRGRFTISRENAKNSLHLQISSLGAGDTAVYYCARAEFSGYVLFFDHWGQGTLVTVSS chain 2: DIQMTQSPSSLSASVGDRVTITCRASQSVGIYLNWYQQKPGKAPKLLIYAASSLQSGVPSRFSGSGSGTDFTLTIISLQPEDFATYYCQQSYTTFSLTFGGGTKVEIK | > 10 µg/mL | > 10 µg/mL | > 10 µg/mL | > 10 µg/mL | > 10 µg/mL | > 10 µg/mL | > 10 µg/mL |
| BD55-3602 (protein) chain 1: QVQLVESGGGVVQPGSSLRLSCAASGFTFSNYDIHWVRQAPGKGLEWVAVISHDGSSKFYGDSVKGRVAISRDSSKTTLQLSSLRAEDTAVYFCAKEQIYDTLTGLNYFDNWGQGTLVTVSS chain 2: DIQMTQSPSSLSASVGDRVTITCRASQSISSHLNWYQQNPGKAPKPLIYAASNLHSGVPSRFSGSGVGTHFTLTISSLQPEDFATYYCQQSYNTPQITFGPGTKVDI | > 10 µg/mL | > 10 µg/mL | > 10 µg/mL | > 10 µg/mL | > 10 µg/mL | > 10 µg/mL | 5.23 µg/mL |
| BD55-3670 (protein) chain 1: QLQLQESGPGLVKPSETLSLICSVSGGSISSRSYRWGWIRQSPGKGLEWIGSISYSGNIDRNPSLKSRVTISVDSSKNKFSLKLSSVTATDTAVYYCARHSGYDFYFDSWGQGTLVTVSS chain 2: DIHMTQSPSTLSASVGDRVTITCRASQSISRWLAWYQQRPGKAPNLLIYMASILESGVPSRFSGSGSGTEFTLTISSLQPDDFATYYCQQYNSDSVTFGPGTKVDIK | > 10 µg/mL | > 10 µg/mL | > 10 µg/mL | > 10 µg/mL | > 10 µg/mL | > 10 µg/mL | > 10 µg/mL |
